PubChem BioAssay AID504761, Drosophila RNAi Screening Center, 2011

Assay: 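Fly genes whose silencing reduces dengue virus type 2 infection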 (primary screen)
System: D.Mel-2 cells from Drosophila
Knock-down reagent: long dsRNA against Drosophila genes
Treatment: infection with dengue virus type 2; dose and infection time not stated
Detection: 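Cells stained for dengue envelope protein and imaged; percent of infected cells per well on duplicate plates, ranked by infection, with stained nuclei counted for cell number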
Reading the numbers: infection score: higher = more virus-infected cells; cell count: higher = more cells in the well
Hit rule: 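Low infection ranks in the two replicates (chance level up to 0.065) followed by a retest with a 1.5-fold or larger significant decrease, p below 0.05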
Calls: active = confirmed: knock-down lowers infection; inactive = not picked or not confirmed
The screen tested about 22,000 reagents; shown is an unselected part of those that have a named target and a result. Of all reagents, 116 (0.52%) got an active call. 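Calls depend on retest data that are not deposited; infection was ranked per plate without normalising between plates; the unit of the infection score is not given.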 Raw values are not corrected between plates. Reagents against one gene are numbered here. Not all columns of the deposit are shown. The record does not give: the amount of reagent, the time to read-out.

CG33301 (GeneID 2768917) #1 | infection score, replicate 1: 2.44; cell count, replicate 1: 6591; outcome: inactive
CG33301 (GeneID 2768917) #2 | infection score, replicate 1: 5.12; cell count, replicate 1: 6423; outcome: inactive
CG31019 (GeneID 318558) #1 | infection score, replicate 1: 4.4; cell count, replicate 1: 5824; outcome: inactive
CG31019 (GeneID 318558) #2 | infection score, replicate 1: 11.2; cell count, replicate 1: 4576; outcome: inactive
CG13121 (retired record) (GeneID 34298) | infection score, replicate 1: 2.85; cell count, replicate 1: 6279; outcome: inactive
Rab7 (GeneID 42841) | infection score, replicate 1: 28.9; cell count, replicate 1: 4749; outcome: inactive
CngA (GeneID 36806) #1 | infection score, replicate 1: 8.48; cell count, replicate 1: 1933; outcome: inactive
CngA (GeneID 36806) #2 | cell count, replicate 1: 485; outcome: inactive
CngA (GeneID 36806) #3 | infection score, replicate 1: 17.8; cell count, replicate 1: 6623; outcome: inactive

The list goes on; the last 2 above are carried over.
CngA (GeneID 36806) #2 | cell count, replicate 1: 485; outcome: inactive
CngA (GeneID 36806) #3 | infection score, replicate 1: 17.8; cell count, replicate 1: 6623; outcome: inactive
CG3611 (GeneID 37972) | infection score, replicate 1: 4.03; cell count, replicate 1: 6793; outcome: inactive
ATPCL (GeneID 36760) #1 | infection score, replicate 1: 14.8; cell count, replicate 1: 6772; outcome: inactive
ATPCL (GeneID 36760) #2 | infection score, replicate 1: 0.83; cell count, replicate 1: 6111; outcome: inactive
CG3251 (GeneID 33671) | infection score, replicate 1: 23.3; cell count, replicate 1: 6219; outcome: inactive
CG10307 (GeneID 37477) #1 | infection score, replicate 1: 3.57; cell count, replicate 1: 6549; outcome: inactive
CG10307 (GeneID 37477) #2 | infection score, replicate 1: 5.76; cell count, replicate 1: 5037; outcome: inactive
TotE (GeneID 35275) | infection score, replicate 1: 5.76; cell count, replicate 1: 5681; outcome: inactive
hh (GeneID 42737) #1 | infection score, replicate 1: 18.3; cell count, replicate 1: 5576; outcome: inactive
hh (GeneID 42737) #2 | infection score, replicate 1: 11.8; cell count, replicate 1: 4518; outcome: inactive
Acox3 (GeneID 33898) #1 | infection score, replicate 1: 1.43; cell count, replicate 1: 6512; outcome: inactive
Acox3 (GeneID 33898) #2 | infection score, replicate 1: 28.4; cell count, replicate 1: 6233; outcome: inactive
Kaz-m1 (GeneID 43154) | infection score, replicate 1: 4.32; cell count, replicate 1: 6711; outcome: inactive
